According to patent US20020058669A1, “PROCESS FOR THE TREATMENT OF ORGANOPHOSPHATE POISONING” (published 2002):

What was measured:
soman-poisoning in rats = assay: Protection of CPA injected 1 min after soman-poisoning in rats; details: CPA 2 mg/kg i.m. alone, no soman, n = 2
[1] = system: release of ACh from a rat diaphragm endplate zone; assay: In vitro release of ACh from rat diaphragm endplate zone; details: 300 nM NECA

Row | Molecule | Survival time (soman-poisoning in rats) | decrease of the release of ACh [1]
1 | OC[C@H]1O[C@@H](n2cnc3c(NC4CCCC4)ncnc32)[C@H](O)[C@@H]1O | >24 h | 
2 | 5′-N-ethylcarboxamido-adenosine |  | 70%
